PubChem BioAssay AID624099 | ICCB-Longwood, 2012

Purpose: 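Knock-downs relieving repression by E2 of an HPV18 LCR luciferase reporter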 (primary screen)
System: human C33A cervical carcinoma cells (HPV-negative) stably expressing BPV1 E2 and an HPV18 LCR luciferase reporter
Knock-down reagent: siRNA pool against human genes, 40 nM
Time to read-out: 72 h
Detection: 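HPV18 LCR reporter light per well, converted to plate-wise z-scores that exclude control wells, and averaged over triplicate plates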
Direction: mean z-score and z-score: higher = stronger reporter signal, weaker E2 silencing
Call rule: 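Hit if mean z-score reaches 2 and two or more of three replicate z-scores also reach 2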
The whole screen tested about 21,000 reagents; below is an unselected part. Over the whole deposit, 497 (2.4%) are marked active. 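Higher z means weaker E2 silencing; only reporter increases were scored, and knock-downs that hurt cell survival may mask genuine repressor factors.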

Silencing of ZNF883 [SID134326466] gave: mean z-score -0.07; z-score, replicate A = -0.01; z-score, replicate B = -0.13; z-score, replicate C = -0.08; inactive.
Depletion of MXD4 [SID134314707] gave: mean z-score 2.16; z-score, replicate A = 1.75; z-score, replicate B = 2.22; z-score, replicate C = 2.52; active.
For POLR1D [SID134321032], the entry reads mean z-score 0.77; z-score, replicate A = 0.83; z-score, replicate B = 0.72; inactive.
For POLR1D [SID134324605], the entry reads mean z-score 1.43; z-score, replicate A = 0.97; z-score, replicate B = 1.87; z-score, replicate C = 1.47; inactive.
Depletion of BAG4 [SID134310418] resulted in: mean z-score 0.63; z-score, replicate A = 0.6; z-score, replicate B = 0.69; z-score, replicate C = 0.6; inactive.
TUBA4A [SID134313633] showed mean z-score -0.75; z-score, replicate A = -0.85; z-score, replicate B = -0.65; z-score, replicate C = -0.75; inactive.
MDC1 [SID134309934] gave mean z-score 0.64; z-score, replicate A = 0.65; z-score, replicate B = 0.6; z-score, replicate C = 0.68; inactive.
After knock-down of TAS2R19 [SID134321738], the record shows mean z-score -0.36; z-score, replicate A = -0.14; z-score, replicate B = -0.55; z-score, replicate C = -0.4; inactive.
After knock-down of DENND2A [SID134326331], the screen gave mean z-score 0.96; z-score, replicate A = 0.83; z-score, replicate B = 1.51; z-score, replicate C = 0.54; inactive.
Knock-down of PIM3 [SID134329753] resulted in: mean z-score -2.59; z-score, replicate A = -2.02; z-score, replicate B = -2.83; z-score, replicate C = -2.91; inactive.
ASIC5 [SID134314041] showed mean z-score 1.19; z-score, replicate A = 1.37; z-score, replicate B = 1.27; z-score, replicate C = 0.94; inactive.
Depletion of BMS1P20 [SID134317592] came out at: mean z-score -0.62; z-score, replicate A = -0.84; z-score, replicate B = -0.8; z-score, replicate C = -0.24; inactive.
For LINC00691 [SID134327312] the deposit lists mean z-score -0.09; z-score, replicate A = 0.3; z-score, replicate B = -0.24; z-score, replicate C = -0.32; inactive.
SRSF4 [SID134310772] showed mean z-score 0.26; z-score, replicate A = 0.22; z-score, replicate B = 0.26; z-score, replicate C = 0.29; inactive.
